Human monoclonal antibodies against the spike receptor-binding domain (heavy:light variable regions). IC50 against pseudoviruses bearing the spike of naturally observed variants; lower = stronger; >10 µg/ml means not reached at the top dose. No active / inactive call. The stated detection limit is 0.0005 µg/ml; values near or below 0.001 µg/ml lie at the floor of the assay.
B1: BD56-1356 (protein)
chain 1: DVQLVQSGAEVKKPGESLKISCKGSGYSFASYWIAWVRQMPGKGLEWMGIIYPGDSDTRYSPSFQGQVTISADKSISTAYLQWSSLKASDTAMYYCATGLTTLGGFDPWGQGTLVTVSS
chain 2: SYVLTQPPSVSVAPGQTARITCGGNNIGSKSVHWYQQKPGQAPVLVVYDDRGRPSGMPERFSGSNSGNTATLTISSVEAGDEADYYCQMWDSSSDFWVFGGGTKLTVL
B2: BD56-1368 (protein)
chain 1: EVQLVESGGGLIQPGGSLRLSCAASGFIVSSNYMSWVRQAPGKGLEWVSVIYPGGTTYYADSVKGRFSISRDNSKNTLYLRMNSLRAEDTAVYYCARSRGWGTFDYWGQGTLVTVSS
chain 2: DIQMTQSPSSLSASVGDRVTITCQASQDIANYLNWYQQKPGKAPKLLIYDASNLETGVPSRFSGSGSGTDFTFTISSLQPEDIATYYCQQYDNLPPYTFGQGTKLEIK
B3: BD56-1370 (protein)
chain 1: QVQLQESGPGLVKPSETLSLTCTVSGGSISNNYWSWIRQPPGKGLEWIGYIYYTGSTNYNPSLKSRVTISVDTSKNQFSLKLSSVTAADTAVYYCARVDWSYSGGGYFDYWGRGTLVTVSS
chain 2: SYVLTQPPSVSVAPGQTARITCGGNNIGTESVHWYQQKPGQAPVVVVYDDSDRPSGIPERFSGSDSGNTATLTIRRVEAGDEADYYCQVWDTSDHVIFGGGTKLTVL
B4: BD56-1353 (protein)
chain 1: QVQLVESGGGVVQPGRSLRLSCAASGFPFSSYGMHWVRQAPGKGLEWVAVIWFDGSNKYYADSVKGRFTISRDNFKNTLYLQMNSLRVEDTAVYYCARDPYDILTGYGFDYWGQGTLVTVSS
chain 2: QSALTQPASVSGSPGQSITISCTGTSSDVGGYKYVCWYQQHPGKAPKLMIYDVSNRPSGVSHRFSGSKSGNTASLTISGLQAEDEADYYCSSFTSSSTLIFGGGTKLTVL
B5: BD56-1357 (protein)
chain 1: QVQLVQSGSELKKPGASVKVSCKASGYTFNSYVINWVRQAPGQGLEWMGWINTNTGNPTYAQGFTGRFVFSLDTSVSTAYLQISSLKAEDTAVYYCAREGGIATRDWFDPWGQGTLVTVSS
chain 2: QSVLTQPPSVSEAPRQRVTISCSGSSSNIGNNAVKWYQQLPGKAPKLLIYYDDLLSSGVSDRFSGSKSGTSASLAISGLQSEDEADYYCAAWDDSLNGLVFGGGTKLTVL

What follows are binders tested against SARS-CoV-2 Omicron BA.1 spike pseudovirus (assay: pseudovirus neutralization IC50; higher = weaker neutralization).
Protocol: (§1)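 Single-round VSV luciferase pseudovirus mixed with antibody dilutions for 1 h and put on Huh-7 cells for about a day; IC50 from the dose curve.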

Going from B1 to B2, the “pseudovirus neutralization IC50” value rises from 0.00436 mg/L to 0.00923 mg/L (2.1-fold).

First: B3
Second: B4
The “pseudovirus neutralization IC50” value of the first is 71-fold lower: 0.000503 mg/L for the first, 0.0359 mg/L for the second.

B5 was tested, and the “pseudovirus neutralization IC50” value was 0.0083 mg/L.

The binders below were run against SARS-CoV-2 Omicron BA.2 spike pseudovirus in the same assay as above.
Protocol: as §1

Going from B1 to B2, the “pseudovirus neutralization IC50” value rises from 0.000261 mg/L to 0.000433 mg/L (1.7-fold).

Going from B3 to B4, the “pseudovirus neutralization IC50” value rises from 0.000278 mg/L to 0.0211 mg/L (76-fold).

With B5 the “pseudovirus neutralization IC50” value was 0.0016 mg/L.

Each binder was assayed against SARS-CoV-2 Omicron BA.2.75 spike pseudovirus in the same assay as above.
Protocol: as §1

Compared with B1, B2 is 1.8-fold higher in “pseudovirus neutralization IC50” value: 0.0165 mg/L for the first, 0.0298 mg/L for the second.

Going from B3 to B4, the “pseudovirus neutralization IC50” value rises from 0.000181 mg/L to greater than 10 mg/L.

In the case of B5, the “pseudovirus neutralization IC50” value is reported as 0.00148 mg/L.

The binders below were run against SARS-CoV-2 Omicron BA.2.75.2 spike pseudovirus in the same assay as above.
Protocol: as §1

Going from B1 to B2, the “pseudovirus neutralization IC50” value rises from 0.44 mg/L to greater than 10 mg/L.

First: B3
Second: B4
The “pseudovirus neutralization IC50” value of the first is lower: 0.00598 mg/L for the first, greater than 10 mg/L for the second.

In the case of B5, the “pseudovirus neutralization IC50” value is reported as 3.84 mg/L.

What follows are binders tested against SARS-CoV-2 Omicron BA.5 spike pseudovirus in the same assay as above.
Protocol: as §1

Compared with B1, B2 is 60-fold lower in “pseudovirus neutralization IC50” value: 0.0337 mg/L for the first, 0.000566 mg/L for the second.

Going from B3 to B4, the “pseudovirus neutralization IC50” value rises from 0.00114 mg/L to greater than 10 mg/L.

In the case of B5, the “pseudovirus neutralization IC50” value is reported as greater than 10 mg/L.

What follows are binders tested against SARS-CoV-2 Omicron BM.1.1.1 spike pseudovirus in the same assay as above.
Protocol: as §1

Compared with B1, B2 is higher in “pseudovirus neutralization IC50” value: 1.38 mg/L for the first, greater than 10 mg/L for the second.

First: B3
Second: B4
The “pseudovirus neutralization IC50” value of the first is lower: 0.00321 mg/L for the first, greater than 10 mg/L for the second.

With B5 the “pseudovirus neutralization IC50” value was greater than 10 mg/L.

The binders below were run against SARS-CoV-2 Omicron BQ.1.1 spike pseudovirus in the same assay as above.
Protocol: as §1

First: B1
Second: B2
The “pseudovirus neutralization IC50” value of the first is 1.6-fold higher: 1.38 mg/L for the first, 0.88 mg/L for the second.

Compared with B3, B4 is higher in “pseudovirus neutralization IC50” value: 0.0229 mg/L for the first, greater than 10 mg/L for the second.

B5 was tested, and the “pseudovirus neutralization IC50” value was greater than 10 mg/L.

The binders below were run against SARS-CoV-2 Omicron BR.2 spike pseudovirus in the same assay as above.
Protocol: as §1

Compared with B1, B2 is 1.7-fold lower in “pseudovirus neutralization IC50” value: 0.755 mg/L for the first, 0.433 mg/L for the second.

Compared with B3, B4 is higher in “pseudovirus neutralization IC50” value: 0.00383 mg/L for the first, greater than 10 mg/L for the second.

With B5 the “pseudovirus neutralization IC50” value was greater than 10 mg/L.

What follows are binders tested against SARS-CoV-2 Omicron CA.1 spike pseudovirus in the same assay as above.
Protocol: as §1

Going from B1 to B2, the “pseudovirus neutralization IC50” value rises from 0.471 mg/L to greater than 10 mg/L.

First: B3
Second: B4
The “pseudovirus neutralization IC50” value of the first is lower: 0.00491 mg/L for the first, greater than 10 mg/L for the second.

B5 was tested, and the “pseudovirus neutralization IC50” value was greater than 10 mg/L.

These binders were tested against SARS-CoV-2 Omicron XBB spike pseudovirus in the same assay as above.
Protocol: as §1

Going from B1 to B2, the “pseudovirus neutralization IC50” value rises from 2.7 mg/L to greater than 10 mg/L.

Going from B3 to B4, the “pseudovirus neutralization IC50” value rises from 0.0557 mg/L to greater than 10 mg/L.

For B5, the “pseudovirus neutralization IC50” value was greater than 10 mg/L.

The binders below were run against SARS-CoV-2 early D614G spike pseudovirus in the same assay as above.
Protocol: as §1

B1 and B2 cannot be ordered by “pseudovirus neutralization IC50” value: greater than 10 mg/L for the first, greater than 10 mg/L for the second.

B3 and B4 cannot be ordered by “pseudovirus neutralization IC50” value: greater than 10 mg/L for the first, greater than 10 mg/L for the second.

B5 was tested, and the “pseudovirus neutralization IC50” value was greater than 10 mg/L.

— the supplement of paper PMC9931576
